Experimental data as given in patent publication US20070249637A1, “Inhibitors Of Hepatitis C Virus Protease, And Compositions And Treatments Using The Same” (priority 2004, published 2007).

The compounds below were run on HCV dual reporter subgenomic replicon (B6b cell line) (assay: HCV dual reporter subgenomic replicon assay, Renilla luciferase (antiviral activity)). Conditions: therapeutic index = CC50 divided by EC50.
Format: cell-based, Hepatitis C virus
Procedure: The compounds described herein were tested for antiviral activity utilizing a dual-reporter replicon assay as described in U.S. patent application Ser. No. 10/818,075 (the '075 application), filed Apr. 5, 2004. The disclosure of the '075 application is incorporated herein.
Cell-based antiviral activity was evaluated in the previously described HCV dual reporter subgenomic replicon system (the '075 application). With this system, the effects of a compound on both HCV replication and cell viability can be simultaneously determined by measuring the intracellular levels of two separate reporter proteins. The dicistronic selectable replicon contains the Renilla luciferase gene such that Renilla luciferase activity within stably-transfected cells serves as a marker of HCV replication. The firefly luciferase gene is stably integrated into and expressed by the Huh-7 host cells. Since firefly luciferase activity is dependent upon cellular transcription and translation, firefly luciferase activity serves as an indicator of cell viability.
The dual reporter selectable replicon cell line (B6b) was maintained in DMEM supplemented with 10% FBS, L-glutamine, non-essential amino acids, penicillin, streptomycin, and selection agents (200 ug/ml G418 and 6 ug/ml blastocidin). On the first day of the experiment, cells were trypsinized, washed, and diluted in medium lacking the selection agents. Cells were transferred to 96-well, black-walled, clear bottom plates at a density of 2×10^4 cells in 150 ul of medium per well. Cells were allowed to settle for 60 to 90 minutes while compounds were being prepared. Each compound was initially diluted to a 4× working stock (2.56% DMSO in tissue culture medium) that was then serially diluted nine times in half log increments in medium with 2.56% DMSO. Fifty microliters of each dilution were then added in triplicate to the plated cells in order to obtain final IX compound concentrations with 0.64% DMSO. Typical testing concentrations ranged from 320 uM to 10 nM. Control wells containing 0.64% DMSO without compound were also included on each plate.
After 3 days of incubation under humidity at 37° C. with 5% CO2, plates were microscopically examined for compound precipitation and cell death. Tissue culture medium was then aspirated and cells were lysed with 20 ul of 1× Passive Lysis Buffer (Promega, Madison, Wis.). Reporter activity was measured using a MicroBeta Jet 1450 (Perkin Elmer, Boston, Mass.) following sequential 50 ul additions of firefly and Renilla luciferase substrates as described in the manufacturers protocol (Promega). Luciferase activities were expressed as a percentage of the signals observed in the compound-free control wells. The amount of compound required to reduce Renilla luciferase expression by 50% is defined as the 50% effective concentration, or EC50. The amount of compound that reduces firefly luciferase expression by 50% is defined as the 50% cytotoxic concentration, or CC50. A therapeutic index (TI) is calculated by dividing the CC50 by the EC50.

Row | SMILES | Replicon TI
1 | Cc1cc(-c2nc(O[C@@H]3C[C@H]4C(=O)N[C@]5(C(=O)O)C[C@H]5/C=C\CCCCC[C@H](NC(=O)OC5CCCC5)C(=O)N4C3)c3sccc3n2)n(C)n1 [Example 58, (2R,6S,12Z,13aS,14aR,16aS)-6-{[(Cyclopentyloxy)carbonyl]amino}-2-{[2-(1,3-dimethyl-1H-pyrazol-5-yl)thieno[3,2-d]pyrimidin-4-yl]oxy}-5,16-dioxo-1,2,3,6,7,8,9,10,11,13a,14,15,16,16a-tetradecahydrocyclopropa[e]pyrrolo[1,2-a][1,4]diazacyclopentadecine-14a(5H)-carboxylic acid] | 3500
2 | Cc1cc(-c2nc(O[C@@H]3C[C@H]4C(=O)N[C@]5(C(=O)O)C[C@H]5/C=C\CCCCC[C@H](NC(=O)OC5CCC5)C(=O)N4C3)c3sccc3n2)n(C)n1 [Example 60, (2R,6S,12Z,13aS,14aR,16aS)-6-{[(Cyclobutyloxy)carbonyl]amino}-2-{[2-(1,3-dimethyl-1H-pyrazol-5-yl)thieno[3,2-d]pyrimidin-4-yl]oxy}-5,16-dioxo-1,2,3,6,7,8,9,10,11,13a,14,15,16,16a-tetradecahydrocyclopropa[e]pyrrolo[1,2-a][1,4]diazacyclopentadecine-14a(5H)-carboxylic acid] | 320
3 | Cc1cc(-c2nc(O[C@@H]3C[C@H]4C(=O)N[C@]5(C(=O)O)C[C@H]5/C=C\CCCCC[C@H](NC(=O)OC(C)(C)C)C(=O)N4C3)c3sccc3n2)n(C)n1 [Example 61, (2R,6S,12Z,13aS,14aR,16aS)-6-[(Tert-butoxycarbonyl)amino]-2-{[2-(1,3-dimethyl-1H-pyrazol-5-yl)thieno[3,2-d]pyrimidin-4-yl]oxy}-5,16-dioxo-1,2,3,6,7,8,9,10,11,13a,14,15,16,16a-tetradecahydrocyclopropa[e]pyrrolo[1,2-a][1,4]diazacyclopentadecine-14a(5H)-carboxylic acid] | 280
4 | Cc1cc(-c2nc(O[C@@H]3C[C@H]4C(=O)N[C@]5(C(=O)O)C[C@H]5/C=C\CCCCC[C@H](NC(=O)CC5CC5)C(=O)N4C3)c3sccc3n2)n(C)n1 [Example 63, (2R,6S,12Z,13aS,14aR,16aS)-6-[(cyclopropylacetyl)amino]-2-{[2-(1,3-dimethyl-1H-pyrazol-5-yl)thieno[3,2-d]pyrimidin-4-yl]oxy}-5,16-dioxo-1,2,3,6,7,8,9,10,11,13a,14,15,16,16a-tetradecahydrocyclopropa[e]pyrrolo[1,2-a][1,4]diazacyclopentadecine-14a(5H)-carboxylic acid] | >29000
5 | Cc1cc(-c2nc(O[C@@H]3C[C@H]4C(=O)N[C@]5(C(=O)O)C[C@H]5/C=C\CCCCC[C@H](NC(=O)O[C@H]5CCOC5)C(=O)N4C3)c3sccc3n2)n(C)n1 [Example 65, (2R,6S,12Z,13aS,14aR,16aS)-2-{[2-(1,3-Dimethyl-1H-pyrazol-5-yl)thieno[3,2-d]pyrimidin-4-yl]oxy}-5,16-dioxo-6-({[(3S)-tetrahydrofuran-3-yloxy]carbonyl}amino)-1,2,3,6,7,8,9,10,11,13a,14,15,16,16a-tetradecahydrocyclopropa[e]pyrrolo[1,2-a][1,4]diazacyclopentadecine-14a(5H)-carboxylic acid] | >120
6 | CC(C)Nc1cccc(-c2nc(O[C@@H]3C[C@H]4C(=O)N[C@]5(C(=O)O)C[C@H]5/C=C\CCCCC[C@H](NC(=O)OC(C)(C)C)C(=O)N4C3)c3sccc3n2)n1 [Example 79, (2R,6S,12Z,13aS,14aR,16aS)-6-[(Tert-butoxycarbonyl)amino]-2-({2-[6-(isopropylamino)pyridin-2-yl]thieno[3,2-d]pyrimidin-4-yl}oxy)-5,16-dioxo-1,2,3,6,7,8,9,10,11,13a,14,15,16,16a-tetradecahydrocyclopropa[e]pyrrolo[1,2-a][1,4]diazacyclopentadecine-14a(5H)-carboxylic acid] | 1200
